# Measured data: PubChem BioAssay AID504761 (Drosophila RNAi Screening Center, 2011)
# Screen: 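Insect host genes that dengue virus relies on to spread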 (primary screen)
# Cell system: D.Mel-2 cells from Drosophila
# Reagent: long dsRNA against Drosophila genes
# Conditions: infection with dengue virus type 2; dose and infection time not stated
# Measured: 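Per well on two replicate plates, imaging gave the percent of cells positive for viral envelope protein, ranked by infection, and a nuclear count of cells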
# Direction: infection score: higher = more virus-infected cells
# Active means: 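Very low infection ranking in both replicate wells (chance probability at most 0.065), then a retest showing infection dropped 1.5-fold or more at p below 0.05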
# Calls: active = confirmed: knock-down lowers infection; inactive = not picked or not confirmed
# The screen tested about 22,000 reagents; shown is a random part of those with a known target gene and a result. In the full data, 116 (0.52%) got an active call. 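Calls depend on retest data that are not deposited; infection was ranked per plate without normalising between plates; the unit of the infection score is not given.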 Further read-outs or replicates are left out here. Not stated in the record: the amount of reagent, the time to read-out.
target,DRSC id,"infection score, replicate 1",Call
mEFTu2 (GeneID 35681),DRSC06163,24.8,inactive
eIF3h (GeneID 45682),DRSC01995,10.2,inactive
eIF3h (GeneID 45682),DRSC27567,27.7,inactive
T48 (GeneID 43235),DRSC16878,0.9,inactive
CG14312 (GeneID 42195),DRSC14791,9.55,inactive
cort (GeneID 33937),DRSC02148,5.26,inactive
cort (GeneID 33937),DRSC26829,3.7,inactive
HPS4 (GeneID 37009),DRSC06906,4.63,inactive
Mnat9 (GeneID 43726),DRSC14325,6.08,inactive
CG31141 (GeneID 318605),DRSC13646,8.87,inactive
CG31141 (GeneID 318605),DRSC29508,13.3,inactive
CG18765 (GeneID 59149),DRSC15392,4.63,inactive
Rrp42 (GeneID 36766),DRSC07161,5.45,inactive
Pbgs (GeneID 39402),DRSC09718,1.53,inactive
bip1 (GeneID 38891),DRSC11327,2.28,inactive
CG18258 (GeneID 32708),DRSC19798,3.78,inactive
CG18258 (GeneID 32708),DRSC29203,11.3,inactive
CG31174 (GeneID 318616),DRSC13518,0.21,inactive
CG10465 (GeneID 35488),DRSC04848,9.59,inactive
verm (GeneID 40149),DRSC11038,2.14,inactive
verm (GeneID 40149),DRSC24665,2.93,inactive
HP6 (GeneID 33661),DRSC00471,6.41,inactive
hdm (GeneID 31705),DRSC18013,2.63,inactive
Oatp33Ea (GeneID 34660),DRSC02859,15.3,inactive
Oatp33Ea (GeneID 34660),DRSC26461,5.28,inactive
Sec6 (GeneID 37142),DRSC06932,4.31,inactive
Polr3C (GeneID 41542),DRSC14490,8.31,inactive
Polr3C (GeneID 41542),DRSC28198,2.33,inactive
AGO1 (GeneID 36544),DRSC05912,28.3,inactive
CG14657 (GeneID 40602),DRSC12219,1.85,inactive
CG14657 (GeneID 40602),DRSC12243,6.01,inactive
Lst8 (GeneID 31903),DRSC18262,1.39,inactive
CG12994 (GeneID 50350),DRSC19514,3.47,inactive
CG16824 (GeneID 5740834),DRSC02525,3.67,inactive
Ir100a (GeneID 43753),DRSC14329,1.4,inactive
Ir100a (GeneID 43753),DRSC25881,2.13,inactive
CG6340 (GeneID 32482),DRSC19987,14,inactive
CG6340 (GeneID 32482),DRSC25288,7.08,inactive
Ntl (GeneID 34046),DRSC03003,38.8,inactive
Ntl (GeneID 34046),DRSC28007,7.55,inactive

A stretch from the list above:
target,DRSC id,"infection score, replicate 1",Call
Polr3C (GeneID 41542),DRSC28198,2.33,inactive
AGO1 (GeneID 36544),DRSC05912,28.3,inactive
CG14657 (GeneID 40602),DRSC12219,1.85,inactive
